Measured values from several laboratories, pooled; numbers as filed in NIAID ChemDB.

Shared fields: target-level tests

Percent inhibition refers to the dose given; in toxicity tests it is the harm to the cells. ICn: concentration for n% inhibition. Conditions beyond the fields shown may differ between rows. Blank or dashed fields: not listed here.

{"structure": "CC(C)C(=O)N1C[C@H](CN2CCC(c3ccccc3)CC2)[C@@H](c2ccccc2)C1", "measure": "IC50", "method": "radiometric", "target": "CCR5", "changes": "CCR5-D276A", "value": "0.35 µM"}
{"structure": "NC(N)=NCCC[C@@H]1NC(=O)[C@H](Cc2ccc(F)cc2)NC(=O)[C@@H](CCCN=C(N)N)NC(=O)CNC(=O)[C@H](Cc2ccc3ccccc3c2)NC1=O", "measure": "IC50", "method": "radiometric", "target": "CXCR4", "value": "0.088 µM"}
{"structure": "Cn1c2ccccc2c2c3c(c4c5ccccc5n(CC(F)F)c4c21)CNC3=O", "measure": "IC50", "target": "cAMP-dependent protein kinase", "value": "2.4 µM"}
{"structure": "CCOC(=O)N(CC1CCCCC1)C1CCN(CCC(CN(C)S(=O)(=O)c2ccccc2)c2ccccc2)CC1", "measure": "IC50", "method": "radioligand binding / binding", "target": "CCR5", "value": "0.04 µM"}
{"structure": "O=C1NCc2c1c1c3ccccc3[nH]c1c1[nH]c3ccccc3c21", "measure": "IC50", "target": "Myosin light-chain kinase", "value": "420 µM"}
{"structure": "CN1C(=O)CC2(CCN(CC[C@H](CN(C)S(=O)(=O)c3ccccc3)c3cccc(Cl)c3)CC2)c2ccccc21", "measure": "IC50", "method": "radioligand binding / binding", "target": "CCR5", "value": "0.06 µM"}
{"structure": "NC(N)=NCCC[C@@H]1NC(=O)[C@H](CCCN=C(N)N)NC(=O)[C@H]2Cc3ccc(O)cc3CN2C(=O)CNC(=O)[C@H](Cc2ccc3ccccc3c2)NC1=O", "measure": "IC50", "method": "radiometric", "target": "CXCR4", "value": "0.16 µM"}
{"structure": "CN(C[C@@H](CCN1CCc2ccccc2C1)c1cccc(Cl)c1)S(=O)(=O)c1ccccc1", "measure": "inhibition", "method": "radioligand binding / binding", "dose": "10 µM", "target": "CCR5", "value": "73%"}
{"structure": "CN(CCNC(=O)NN)CC1OC(n2cnc3c(N)ncnc32)C(O)C1O", "measure": "IC50", "target": "S-adenosylmethionine decarboxylase", "value": "0.6 µM"}
{"structure": "CCCCCCCCCCCCCCCCOCC(Cl)COP(=O)([O-])OCC[N+](C)(C)C", "measure": "inhibition", "dose": "19 µM", "target": "Protein kinase C", "value": "74%"}
{"structure": "CCN(C)C(=O)C1CCN(CCC(CN(C)S(=O)(=O)c2ccccc2)c2ccccc2)CC1", "measure": "IC50", "method": "radioligand binding / binding", "target": "CCR5", "value": ">10 µM"}
{"structure": "CN1CC[C@H](c2c(O)cc(O)c3c(=O)cc(-c4ccccc4Cl)oc23)[C@H](O)C1", "measure": "IC50", "method": "radiometric", "target": "Cyclin-dependent kinase 7", "value": "0.2 µM"}
{"structure": "CSc1sc(C(N)=O)c2c1-c1nocc1CC2", "measure": "IC50", "target": "Protein kinase A", "value": ">30 µM"}
{"structure": "CCN(C(=O)OCc1ccccc1)C1CCN(CC[C@](C)(CN(C)S(=O)(=O)c2ccccc2)c2ccccc2)CC1", "measure": "IC50", "method": "radiometric", "target": "CCR5", "value": "0.004 µM"}
{"structure": "Cc1nc2cc(Cl)c(Cl)cc2n1[C@@H]1O[C@H](CO)[C@@H](O)[C@H]1O", "measure": "IC50", "target": "Protein kinase C", "value": ">30 µM"}
{"structure": "CN(CCCCON)C[C@H]1O[C@@H](n2cnc3c(N)ncnc32)[C@H](O)[C@@H]1O", "measure": "IC50", "target": "S-adenosylmethionine decarboxylase", "value": "0.01 µM"}
{"structure": "NCCCC[C@@H]1NC(=O)[C@H](CCCN=C(N)N)NC(=O)[C@@H](Cc2ccc(O)cc2)NC(=O)CNC(=O)[C@H](Cc2ccc3ccccc3c2)NC1=O", "measure": "IC50", "method": "radiometric", "target": "CXCR4", "value": ">1 µM"}
{"structure": "C[C@@H](O)[C@H](NC(=O)OCc1ccccc1)C(=O)N[C@@H](CO)C(=O)NN", "measure": "IC50", "target": "S-adenosylmethionine decarboxylase", "value": "75 µM"}
{"structure": "Clc1nc2cc(Br)c(Br)cc2[nH]1", "measure": "IC50", "target": "Protein kinase C", "value": ">30 µM"}
{"structure": "NC[C@@H]1O[C@H](O[C@H]2[C@@H](O)[C@H](O[C@@H]3[C@@H](O)[C@H](N)C[C@H](N)[C@H]3O[C@H]3O[C@H](CN)[C@@H](O)[C@H](O)[C@H]3N)O[C@@H]2CO)[C@H](N)[C@@H](O)[C@@H]1O", "measure": "inhibition", "method": "flow cytometry", "dose": "20 µM", "target": "CXCR4", "value": "0%"}
{"structure": "Clc1c(Cl)c(Cl)c2n[nH]nc2c1Cl", "measure": "IC50", "target": "Protein kinase A", "value": ">30 µM"}
{"structure": "CN1CC[C@H](c2c(O)cc(O)c3c(=O)cc(-c4ccccc4F)oc23)[C@H](O)C1", "measure": "IC50", "method": "kinase activity", "target": "Cyclin-dependent kinase 3", "value": "1.423 µM"}
{"structure": "NCCC[C@@H]1NC(=O)[C@H](CCCN=C(N)N)NC(=O)[C@@H](Cc2ccc(O)cc2)NC(=O)CNC(=O)[C@H](Cc2ccc3ccccc3c2)NC1=O", "measure": "IC50", "method": "radiometric", "target": "CXCR4", "value": "0.69 µM"}
{"structure": "CNC(C)[C@H]1O[C@H](O[C@@H]2[C@@H](O)[C@H](O[C@@H]3OC[C@@](C)(O)[C@@H](NC)[C@@H]3O)[C@@H](NC(=O)[C@@H](N)CCCN=C(N)N)C[C@H]2NC(=O)[C@@H](N)CCCN=C(N)N)[C@H](NC(=O)[C@@H](N)CCCN=C(N)N)[C@@H](O)[C@@H]1O", "measure": "IC50", "method": "flow cytometry", "target": "CXCR4", "value": "<10 µM"}
{"structure": "CN1Cc2c(c3c4ccccc4n(C)c3c3c2c2ccccc2n3CCC#N)C1=O", "measure": "IC50", "target": "cAMP-dependent protein kinase", "value": ">30 µM"}
{"structure": "NC[C@@H]1O[C@H](O[C@H]2[C@@H](O)[C@H](O[C@@H]3[C@@H](O)[C@H](N)C[C@H](N)[C@H]3O[C@H]3O[C@H](CO)[C@@H](O)[C@H](O)[C@H]3N)O[C@@H]2CO)[C@H](N)[C@@H](O)[C@@H]1O", "measure": "inhibition", "method": "flow cytometry", "dose": "20 µM", "target": "CXCR4", "value": "0%"}
{"structure": "CN(C[C@@H](CCN1CCC(c2ccc(Cl)cc2)CC1)c1cccc(Cl)c1)S(=O)(=O)c1ccccc1", "measure": "IC50", "method": "radioligand binding / binding", "target": "CCR5", "value": "0.1 µM"}
{"structure": "NC(N)=NCCC[C@H](N)C(=O)NC[C@@H]1OC(O[C@H]2[C@@H](O)[C@H](O[C@@H]3[C@@H](O)[C@H](N)C[C@H](N)[C@H]3O[C@H]3O[C@H](CNC(=O)[C@@H](N)CCCN=C(N)N)[C@@H](O)[C@H](O)[C@H]3N)O[C@@H]2CO)[C@H](N)[C@@H](O)[C@@H]1O", "measure": "inhibition", "method": "flow cytometry", "dose": "10 µM", "target": "CXCR4", "value": "50%"}
{"structure": "CN(C[C@@H](CCN1CCC2c3ccccc3NC2C1)c1cccc(Cl)c1)S(=O)(=O)c1ccccc1", "measure": "IC50", "method": "radioligand binding / binding", "target": "CCR5", "value": "0.25 µM"}
{"structure": "Cc1cc(SC2=C(O)C[C@@](CCc3ccc(O)cc3)(C(C)C)OC2=O)c(C(C)(C)C)cc1CO", "measure": "inhibition", "dose": "1 µM", "target": "Cytochrome P450 2C9", "value": "0%"}
{"structure": "O=C(O[C@@H]1Cc2c(O)cc(O)cc2O[C@@H]1c1ccc(O)c(O)c1)c1cc(O)c(O)c(O)c1", "measure": "inhibition", "method": "ELISA", "dose": "200 µM", "target": "CD4", "value": "28%"}
{"structure": "CN(CC(C)(CCN1CCC(N(CCO)C(=O)OCc2ccc([N+](=O)[O-])cc2)CC1)c1ccsc1)S(=O)(=O)c1ccccc1", "measure": "IC50", "method": "radiometric", "target": "CCR5", "changes": "CCR5-D276A", "value": "0.004 µM"}
{"structure": "NC(N)=NCCC[C@H](N)C(=O)NC[C@@H]1OC(O[C@H]2[C@@H](O)[C@H](O[C@@H]3[C@@H](O)[C@H](NC(=O)[C@@H](N)CCCN=C(N)N)C[C@H](NC(=O)[C@@H](N)CCCN=C(N)N)[C@H]3O[C@H]3O[C@H](CO)[C@@H](O)[C@H](O)[C@H]3NC(=O)[C@@H](N)CCCN=C(N)N)O[C@@H]2CO)[C@H](NC(=O)[C@@H](N)CCCN=C(N)N)[C@@H](O)[C@@H]1O", "measure": "inhibition", "method": "flow cytometry", "dose": "10 µM", "target": "CXCR4", "value": "85%"}

Repeating the final 2 entries:

structure | measure | method | dose | target | changes | value
CN(CC(C)(CCN1CCC(N(CCO)C(=O)OCc2ccc([N+](=O)[O-])cc2)CC1)c1ccsc1)S(=O)(=O)c1ccccc1 | IC50 | radiometric | - | CCR5 | CCR5-D276A | 0.004 µM
NC(N)=NCCC[C@H](N)C(=O)NC[C@@H]1OC(O[C@H]2[C@@H](O)[C@H](O[C@@H]3[C@@H](O)[C@H](NC(=O)[C@@H](N)CCCN=C(N)N)C[C@H](NC(=O)[C@@H](N)CCCN=C(N)N)[C@H]3O[C@H]3O[C@H](CO)[C@@H](O)[C@H](O)[C@H]3NC(=O)[C@@H](N)CCCN=C(N)N)O[C@@H]2CO)[C@H](NC(=O)[C@@H](N)CCCN=C(N)N)[C@@H](O)[C@@H]1O | inhibition | flow cytometry | 10 µM | CXCR4 | - | 85%